Measurements: patent US20230391835A1 (Pfizer, published 2023)

B1: B8-26 mAb (antibody, V domains shown)
VH: QVQLQQPGAELVKPGAPVKLSCKASGYSFTSYWMNWVKQRPGRGLEWIGRIDPSNSEIYYNQKFKDKATLTVDKSSSTAYIQLSSLTSEDSAVYYCASGHYGSIFAYWGQGTTLTVSS
VL: VQITQSPSYLAASPGETITINCRASKSISKYLAWYQEKPGKTNKLLLYSGSTLQSGIPSRFSGSRSGTDFTLIISSLEPEDSAMYYCQQHNEYPLTFGAGTKLELKR
B2: B59-3 mAb (antibody, V domains shown)
VH: QVQLQQPGAELVKPGASVKLSCKASGYTFTSYWMHWVKQRPGQGLEWIGVINPSNGRSTYSEKFKTTATVTVDKSSSTAYMQLSILTSEDSAVYYCARAYYSTSYYAMDYWGQGTSVTVSS
VL: VLMTQSPLSLPVSLGDQASISCRSSQNIVHSNGNTYLEWYLQKPGQSPKLLIYKVSNRFSGVPDRFSGSGSGTYFTLKISRVEAEDLGVYYCFQGSHFPFTFGTGTKLEIKR
B3: B8-26 mAb (C. difficile TcdB neutralizing antibody) (antibody, V domains shown)
VH: QVQLQQPGAELVKPGAPVKLSCKASGYSFTSYWMNWVKQRPGRGLEWIGRIDPSNSEIYYNQKFKDKATLTVDKSSSTAYIQLSSLTSEDSAVYYCASGHYGSIFAYWGQGTTLTVSS
VL: VQITQSPSYLAASPGETITINCRASKSISKYLAWYQEKPGKTNKLLLYSGSTLQSGIPSRFSGSRSGTDFTLIISSLEPEDSAMYYCQQHNEYPLTFGAGTKLELKR
B4: B59-3 mAb (C. difficile TcdB neutralizing antibody) (antibody, V domains shown)
VH: QVQLQQPGAELVKPGASVKLSCKASGYTFTSYWMHWVKQRPGQGLEWIGVINPSNGRSTYSEKFKTTATVTVDKSSSTAYMQLSILTSEDSAVYYCARAYYSTSYYAMDYWGQGTSVTVSS
VL: VLMTQSPLSLPVSLGDQASISCRSSQNIVHSNGNTYLEWYLQKPGQSPKLLIYKVSNRFSGVPDRFSGSGSGTYFTLKISRVEAEDLGVYYCFQGSHFPFTFGTGTKLEIKR

Columns and labels:
[1] = target: Formalin-inactivated triple mutant toxin B (SEQ ID NO: 6) (Clostridium difficile (strain 630 …))
[2] = target: EDC/NHS-treated triple mutant toxin B (SEQ ID NO: 6) (Clostridium difficile (strain 630 …))
[3] = target: Triple mutant toxin B (SEQ ID NO: 6), not chemically treated (Clostridium difficile (strain 630 …)); assay: dot blot; None, Triple mutant TcdB
[4] = target: Triple mutant toxin B (SEQ ID NO: 6), untreated (Clostridium difficile (strain 630)); assay: dot blot, non-denaturing conditions; sample L44905-86-01 untreated control

| Binder | binding result [1] | binding result [2] | binding result [3] | binding result [4] |
| --- | --- | --- | --- | --- |
| B1 | binds | binds | binds | – |
| B2 | binds | binds | binds | – |
| B3 | – | – | – | binds |
| B4 | – | – | – | binds |
